Measured values published in PMC7290494, “Repurposing Cancer Drugs Batimastat and Marimastat to Inhibit the Activity of a Group I Metalloprotease from the Venom of the Western Diamondback Rattlesnake, Crotalus atrox” (2020).

The chains behind the UniProt entries cited, without tags or fusion partners.
UniProt Q91401, whole entry, looked up: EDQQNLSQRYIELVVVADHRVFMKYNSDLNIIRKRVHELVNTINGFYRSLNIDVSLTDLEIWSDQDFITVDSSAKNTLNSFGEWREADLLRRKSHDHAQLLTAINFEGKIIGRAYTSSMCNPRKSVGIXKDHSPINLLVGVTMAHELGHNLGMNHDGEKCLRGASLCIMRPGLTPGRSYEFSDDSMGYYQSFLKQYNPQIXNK

Biological target: CAMP-2 (Crotalus atrox, UniProt Q91401)
Test: DQ-gelatin fluorogenic metalloprotease (collagenolytic) assay
Details: 2 μg CAMP-2; 5 min preincubation with inhibitor; DQ-gelatin 10 μg/mL; 37 °C; 30 min

Row | SMILES | % inhibition at around 3 μM
1 | CNC(=O)[C@@H](NC(=O)[C@H](CC(C)C)[C@H](O)C(=O)NO)C(C)(C)C | Its collagenolytic activity is completely inhibited by batimastat and marimastat
2 | CNC(=O)[C@H](Cc1ccccc1)NC(=O)[C@H](CC(C)C)[C@H](CSc1cccs1)C(=O)NO | Its collagenolytic activity is completely inhibited by batimastat and marimastat
